Results of unrelated studies side by side (data: NIAID ChemDB).

Shared fields: toxicity to cultured cells; cell line: VERO; read-out: CC50

CCn: concentration that lowers growth or viability of the cells by n%. Rows are shuffled and stem from different studies.

Nc1ccn(C[C@H]2COP(=O)(O)CO2)c(=O)n1 ; value: 80 µg/mL
C#CCOc1cc(OC)ccc1-c1cc(N(CC)CC)no1 ; value: 40 µM
Nc1ncnc2c1nc(Cl)n2[C@@H]1O[C@H](CO)[C@@H](O)[C@H]1O ; value: 18 µM
CC[C@@H](C(C)C)[C@H](O)[C@@H](O)[C@@H](C)[C@H]1CC[C@H]2[C@@H]3CC(=O)[C@H]4C[C@H](O)[C@H](O)C[C@]4(C)[C@H]3CC[C@]12C ; value: 376 µM
OC(c1ccccc1)c1nc2cc(Cl)ccc2s1 ; value: 500 µg/mL
Nc1ncnc2c1ncn2C[C@@H](CO)OCP(=O)(O)O ; value: >100 µg/mL
O=C(NS(=O)(=O)OC[C@H]1O[C@@H](n2ccc(=O)[nH]c2=O)[C@H](O)[C@@H]1O)O[C@@H]1C[C@@H](OC(=O)c2ccccc2)[C@H](OC(=O)c2ccccc2)[C@@H](COC(=O)c2ccccc2)O1 ; value: 300 µg/mL
Nc1ccn(C[C@@H](CO)OCP(=O)(O)O)c(=O)n1 ; value: >100 µg/mL
COc1cc(/C=N/N=C(/N)NO)cc(OC)c1OC.Cc1ccc(S(=O)(=O)O)cc1 ; value: 25 µM
O=c1[nH]c(=O)n([C@H]2C[C@H](O)[C@@H](CO)O2)cc1I ; value: >1000 µM
N=c1c2ncn([C@@H]3O[C@H](CO)[C@@H](O)[C@H]3O)c2ncn1OCc1cc(F)cc(F)c1 ; value: 75 µg/mL
C[C@@]1(O)[C@H](O)[C@@H](COP(=O)(O)OP(=O)(O)OP(=O)(O)O)O[C@H]1n1ccc2c(N)ncnc21 ; value: >200 µM
Nc1nccc2c1ncn2[C@@H]1C=C(CO)[C@@H](O)[C@H]1O ; value: 0.3 µg/mL
CC(=O)OC[C@H]1O[C@@H](n2c(C(N)=S)cc(=O)[nH]c2=O)C(OC(C)=O)C1OC(C)=O ; value: 940 µg/mL
CC[C@@H](C(C)C)[C@@H](O)[C@H](O)[C@@H](C)[C@H]1CC[C@H]2[C@@H]3CC(=O)[C@H]4C[C@H](O)[C@H](O)C[C@]4(C)[C@H]3CC[C@]12C ; value: 209 µM
Nc1nc(=O)n([C@@H]2C=C(CO)[C@@H](O)[C@H]2O)cc1F ; value: 39 µg/mL
Nc1nc2c(ncn2[C@@H]2O[C@H](CO)[C@@H](O)[C@@H]2O)c(=O)[nH]1 ; value: >1000 µM
NC(=O)c1[nH]nc([C@@H]2O[C@H](CO)[C@@H](O)[C@H]2O)c1O ; value: 3 µg/mL
Nc1ccn(C[C@@H](CO)OCP(=O)(O)O)c(=O)n1 ; value: >1000 µM
CC[C@@H](C(C)C)[C@@H](O)[C@H](O)[C@@H](C)[C@H]1CC[C@H]2[C@@H]3CC(=O)[C@@]4(O)C[C@@H](Br)CC[C@]4(C)[C@H]3CC[C@]12C ; value: 23 µM
CN(C)c1ccc(C(=O)c2cc(/C=C/C(=O)O)n(C)c2)cc1 ; value: 125 µg/mL
O=c1[nH]c(=O)n([C@@H]2O[C@H](CO)[C@@H](O)[C@@H]2F)cc1I ; value: 400 µM
OC[C@H]1O[C@@H](n2ccc3c(Cl)ncnc32)[C@H](O)[C@@H]1O ; value: 320 µg/mL
COc1cc2c(cc1OC)-c1c(OC)c(OC)cc3c1C(C2)N(C(C)=O)CC3 ; value: 242 µM
CC(C)NS(=O)(=O)OC[C@H]1O[C@@H](n2ccc(=O)[nH]c2=O)C2OC(C)(C)OC21 ; value: 304 µg/mL
Cn1cc(C(=O)c2ccc(Cl)cc2)cc1/C=C/C(=O)O ; value: 30 µg/mL
N[C@H]1C(=O)N[C@@H]2Cc3ccc(c(Cl)c3)Oc3cc4cc(c3O)Oc3ccc(cc3Cl)[C@@H](O)[C@@H]3NC(=O)[C@H](NC(=O)[C@@H]4NC(=O)[C@@H](NC2=O)c2cc(O)cc(c2)Oc2cc1ccc2O)c1ccc(O)c(c1)-c1c(O)cc(O)cc1[C@@H](C(=O)C1NCCC2CCCCC21)NC3=O ; value: >100 µM
Cc1ccc(S(=O)(=O)O)cc1.N/C(=N/N=C/c1ccc2c(c1)OCO2)NO ; value: 25 µM
O=c1[nH]cnc2c1ccn2[C@@H]1O[C@H](CO)[C@@H](O)[C@H]1O ; value: 32 µg/mL
C[C@H](NC(=O)OCc1ccccc1)C(=O)NC(CCC(=O)N(C)C)C(=O)CF ; value: >100 µM
O=C(N/N=C/c1ccc(Cl)cc1Cl)c1ccccc1SSc1ccccc1C(=O)N/N=C/c1ccc(Cl)cc1Cl ; value: 363.2 µM
CC(=O)OC1C(OC(C)=O)[C@@H](COS(=O)(=O)NC(C)C)O[C@H]1n1ccc(=O)[nH]c1=O ; value: 352 µg/mL
CC[C@@H](C(C)C)[C@H](O)[C@@H](O)[C@@H](C)[C@H]1CC[C@H]2[C@@H]3CC(=O)[C@@]4(O)C[C@H](O)[C@H](O)C[C@]4(C)[C@H]3CC[C@]12C ; value: 364 µM
COc1ccc(OC)c(/C=N/N=C(/N)NO)c1.Cc1ccc(S(=O)(=O)O)cc1 ; value: 200 µM
CC[C@@H](C(C)C)[C@@H](O)[C@H](O)[C@@H](C)[C@H]1CC[C@H]2[C@@H]3CC(=O)[C@@]4(O)C[C@@H](OC(C)=O)CC[C@]4(C)[C@H]3CC[C@]12C ; value: 230 µM
O=c1cnn([C@@H]2O[C@H](CO)[C@@H](O)[C@H]2O)c(=S)[nH]1 ; value: >100 µg/mL
CC(=O)O[C@H]1C[C@H](n2ccc(=O)[nH]c2=O)O[C@@H]1COS(=O)(=O)NC(=O)O[C@H]1O[C@H](COC(=O)c2ccccc2)[C@@H](OC(=O)c2ccccc2)[C@H](OC(=O)c2ccccc2)[C@H]1OC(=O)c1ccccc1 ; value: 300 µg/mL
CC1(C)OC2C(O1)[C@@H](COS(=O)(=O)NC(=O)O[C@H]1O[C@H](COCc3ccccc3)[C@@H](OCc3ccccc3)[C@H](OCc3ccccc3)[C@H]1OCc1ccccc1)O[C@H]2n1ccc(=O)[nH]c1=O ; value: 44 µg/mL
CC(=O)OC[C@H]1O[C@@H](n2ncc(=S)[nH]c2=S)C(OC(C)=O)C1OC(C)=O ; value: 500 µg/mL
NC(N)=Nc1ccccc1SSc1ccccc1N=C(N)N ; value: 94.4 µM
CC[C@@H](C(C)C)[C@@H](O)[C@H](O)[C@@H](C)[C@H]1CC[C@H]2[C@@H]3CC(=O)[C@H]4C[C@@H](Br)CC[C@]4(C)[C@H]3CC[C@]12C ; value: 248 µM

5 of the rows above, restated:

SMILES	value
CC[C@@H](C(C)C)[C@H](O)[C@@H](O)[C@@H](C)[C@H]1CC[C@H]2[C@@H]3CC(=O)[C@H]4C[C@H](O)[C@H](O)C[C@]4(C)[C@H]3CC[C@]12C	376 µM
CC(=O)OC[C@H]1O[C@@H](n2c(C(N)=S)cc(=O)[nH]c2=O)C(OC(C)=O)C1OC(C)=O	940 µg/mL
Cn1cc(C(=O)c2ccc(Cl)cc2)cc1/C=C/C(=O)O	30 µg/mL
O=C(N/N=C/c1ccc(Cl)cc1Cl)c1ccccc1SSc1ccccc1C(=O)N/N=C/c1ccc(Cl)cc1Cl	363.2 µM
O=c1[nH]c(=O)n([C@H]2C[C@H](O)[C@@H](CO)O2)cc1I	>1000 µM